Results of unrelated studies side by side (data: NIAID ChemDB).

All rows: tests on isolated targets; species: HIV-1; protein: Reverse transcriptase; measure: IC50

An empty or dashed field is not shown.

SMILES	strain	mutations	read by	value
Cc1ccc(S(=O)(=O)n2c(=O)[nH]c3ccc(Cl)cc32)cc1C		K103N	nucleotide incorporation	1.2 µM
CCN1c2ncc(CCOc3ccc(CC(=O)O)c4ccccc34)cc2C(=O)N(C)c2cccnc21	WT		nucleotide incorporation / radiometric	<0.1 µM
N=C(N)c1ccc(N=NNc2ccc(C(=N)N)cc2)cc1			nucleotide incorporation	600 µM
CCN1c2ncc(CCOc3ccc(C(=O)O)c4c3CCN(C(=O)OC)C4)cc2C(=O)N(C)c2cccnc21		RT-Y188L	nucleotide incorporation / radiometric	0.1–1 µM
CCN1c2ncc(CCOc3ccc(NC(=O)C4CC4C(=O)O)cc3C)cc2C(=O)N(C)c2cccnc21	IIIB	RT-K103N Y181C	nucleotide incorporation / radiometric	>0.1 µM
Nc1ncnc2c(C[C@@H](OCP(=O)(O)OP(=O)(O)OP(=O)(O)O)C(F)F)cnn12			nucleotide incorporation / radiometric	0.05–0.25 µM
CCN1c2ncc(CCOc3ccc(C4CC4C(=O)O)c4ccccc34)cc2C(=O)N(C)c2ccc(F)nc21	WT		nucleotide incorporation / radiometric	<0.1 µM
CCN1C(=O)c2cccnc2N(C)c2nc(-c3ccc[nH]3)ccc21		RT-Y181C	nucleotide incorporation / radiometric	>1 µM
Cc1occc1C(=S)Nc1ccc(Cl)c(C(=O)OCC2CC2)c1		RT-L108I	nucleotide incorporation / radiometric	23 µM
CCOC(=O)c1c(C(C)C)c(C#N)c(=N)n2ccccc12	LAV		RT activity	70 µM
CCn1c(=O)c(C)cn([C@@H]2O[C@H](CO[Si](C)(C)C(C)(C)C)C3(OS(=O)(=O)C=C3N)[C@H]2O[Si](C)(C)C(C)(C)C)c1=O		RT-E138K(P66)		44.7 µM
CCN1c2ncccc2NC(=O)c2cc(CCOc3ccc(-c4ccc(CC(=O)O)cc4)cc3C)cnc21	IIIB	RT-K103N Y181C	nucleotide incorporation / radiometric	0.05–0.1 µM
CCN1c2ncc(CCc3ccncc3)cc2C(=O)N(C)c2ccc(Cl)nc21	IIIB	RT-K103N	RT activity	0.12 µM
O=C(O[C@@H]1[C@H](c2c(O)cc(O)c3c2O[C@H](c2ccc(O)c(O)c2)[C@H](OC(=O)c2cc(O)c(O)c(O)c2)C3)c2c(O)cc(O)c([C@H]3c4c(O)cc(O)cc4O[C@H](c4ccc(O)c(O)c4)[C@@H]3OC(=O)c3cc(O)c(O)c(O)c3)c2O[C@@H]1c1ccc(O)c(O)c1)c1cc(O)c(O)c(O)c1			nucleotide incorporation	>20 µg/mL
CCN1c2ncc(CCOc3ccc(C(=O)Nc4cccnc4C)cc3C)cc2C(=O)N(C)c2cccnc21	IIIB	RT-K103N Y181C	nucleotide incorporation / radiometric	<0.05 µM
CCN1c2ncccc2C(=O)N(C)c2ccc(-c3ccc[nH]3)nc21		RT-Y188L	nucleotide incorporation / radiometric	>1 µM
C=CCO/N=C/c1cc(NC(=S)c2ccoc2C)ccc1Cl			nucleotide incorporation / radiometric	6 µM
CCCN1c2ncccc2C(=O)N(C)c2ccc(-c3cn[nH]c3)nc21		RT-Y181C	nucleotide incorporation / radiometric	<1 µM
CC(C)(Cc1cnn2c(=O)[nH]c(N)nc12)OCP(=O)(O)OP(=O)(O)OP(=O)(O)O			nucleotide incorporation / radiometric	≥0.25 µM
Nc1nc2c(ncn2[C@H]2CC[C@@H](COP(=O)(O)OP(=O)(O)OP(=O)(O)O)O2)c(=O)[nH]1		RT-F77L	nucleotide incorporation / radiometric	0.028 µM
Cn1cc(C(=O)Nc2cc(C(=O)NCCCC(=O)Nc3cc(C(=O)Nc4cc(C(=O)NCCC(=N)N)n(C)c4)n(C)c3)cn2C)cc1NC(=O)CN=C(N)N			nucleotide incorporation	>200 µM
COC(=O)N1CCC(=C(c2cc(Cl)c(OC)c(C(=O)O)c2)c2cc(Cl)c(OC)c(C(=O)O)c2)CC1			nucleotide incorporation	>100 µM
C[C@@H](Cc1cnn2c(N)ncnc12)OCP(=O)(O)OP(=O)(O)OP(=O)(O)O			nucleotide incorporation / radiometric	<0.05 µM
COC(=O)c1cc(C(=C2CCN(C(=O)OC)CC2)c2cc(C)c(OC)c(C(=O)OC)c2)cc(C)c1OC			nucleotide incorporation	>100 µM
Cc1cc(C#N)ccc1Nc1nc(N)n(S(=O)(=O)c2cccc3cc(C#N)ccc23)n1	A17	Y181C/K103N	luciferase / RT activity	290 µM
COC(=O)c1cc(C(=C2CCN(C(=O)OC)CC2)c2cc(Cl)c(OC)c(C(=O)OC)c2)cc(Cl)c1OC			nucleotide incorporation	>100 µM
Cn1cc(C(=O)Nc2cc(C(=O)NCCCCC(=O)Nc3cc(C(=O)Nc4cc(C(=O)NCCC(=N)N)n(C)c4)n(C)c3)cn2C)cc1NC(=O)CN=C(N)N			nucleotide incorporation	>200 µM
Cc1cc(=O)c2c(O)c3c(O)cc(O)c4c5c(O)cc(O)c6c(O)c7c(=O)cc(C)c8c1c2c(c34)c(c65)c78			RT activity	<1 µg/mL
Cc1occc1C(=S)Nc1ccc(Cl)c(/C=N/OC(C)(C)C)c1		RT-Y188H	nucleotide incorporation / radiometric	17 µM
Nc1ccn([C@H]2CC[C@@H](COP(=O)(O)OP(=O)(O)OP(=O)(O)O)O2)c(=O)n1		RT-A62V V75I F77L F116Y Q151M	nucleotide incorporation / radiometric	5 µM
O=C(OCC1OC(OC(=O)c2cc(O)c(O)c(O)c2)C(OC(=O)c2cc(O)c(O)c(O)c2)C(OC(=O)c2cc(O)c(O)c(O)c2)C1OC(=O)c1cc(O)c(O)c(O)c1Oc1cc2c(c(O)c1O)-c1c(cc(O)c(O)c1O)C(=O)OCC1OC(OC(=O)c3cc(O)c(O)c(O)c3)C(OC(=O)c3cc(O)c(O)c(O)c3)C(OC(=O)c3cc(O)c(O)c(O)c3)C1OC2=O)c1cc(O)c(O)c(O)c1			nucleotide incorporation	>20 µg/mL
CCc1cc(=O)c2c(O)c3c(O)cc(O)c4c5c(O)cc(O)c6c(O)c7c(=O)cc(CC)c8c1c2c(c34)c(c65)c78			RT activity	89.34 µg/mL
CCN1c2ncccc2C(=O)N(C)c2ccc(-c3ccn[nH]3)nc21	WT		nucleotide incorporation / radiometric	<1 µM
O=C(OC[C@H]1O[C@@H](OC(=O)c2cc(O)c(O)c(O)c2)[C@H](O)[C@@H](O)[C@@H]1O)c1cc(O)c(O)c(O)c1			nucleotide incorporation	>20 µg/mL
O=C(O)c1cn([C@@H]2O[C@H](CO)[C@@H](O)[C@H]2O)c2cc(Cl)ccc2c1=O				>100 µM
C[C@H](Cc1ncc2c(N)ncnn12)OCP(=O)(O)OP(=O)(O)OP(=O)(O)O			nucleotide incorporation / radiometric	≥0.25 µM
CCN1c2ncc(CCOc3ccc(-c4ccc(C(C)C(=O)O)cc4)cc3C)cc2C(=O)N(C)c2cccnc21	IIIB	RT-K103N Y181C	nucleotide incorporation / radiometric	<0.05 µM
CCN1c2ncc(CCc3ccccc3)cc2C(=O)N(C)c2ccc(Cl)nc21	IIIB		RT activity	0.05 µM
Cn1cc(C(=O)Nc2cc(C(=O)NCCCCCC(=O)Nc3cc(C(=O)Nc4cc(C(=O)NCCC(=N)N)n(C)c4)n(C)c3)cn2C)cc1NC(=O)CN=C(N)N			nucleotide incorporation	~180 µM
O=C(O)c1cn([C@@H]2O[C@H](CO)[C@@H](O)[C@H]2O)c2cc(Br)ccc2c1=O				>100 µM
Nc1ncnn2c(C[C@H](CF)OCP(=O)(O)OP(=O)(O)OP(=O)(O)O)cnc12			nucleotide incorporation / radiometric	0.05–0.25 µM
CCCN1c2nc(-c3cn[nH]c3)ccc2NC(=O)c2cccnc21		RT-Y181C	nucleotide incorporation / radiometric	<1 µM
N#Cc1cc(Cl)cc(Oc2c(Cl)ccc(OCc3[nH]nc4ncccc34)c2F)c1			scintillation proximity / radiometric	0.011 µM
CCN1c2ncccc2C(=O)N(C)c2ccc(-c3cc4cc(OC)ccc4[nH]3)nc21		RT-Y181C	nucleotide incorporation / radiometric	>1 µM
O=C(OC[C@H]1O[C@@H](OC(=O)c2cc(O)c(O)c(O)c2)[C@H](OC(=O)c2cc(O)c(O)c(O)c2)[C@@H](OC(=O)c2cc(O)c(O)c(O)c2)[C@@H]1OC(=O)c1cc(O)c(O)c(O)c1)c1cc(O)c(O)c(O)c1			nucleotide incorporation	>20 µg/mL
CC(Cc1cnc2c(=O)[nH]c(N)nn12)OCP(=O)(O)OP(=O)(O)OP(=O)(O)O			nucleotide incorporation / radiometric	0.05–0.25 µM
CCN1c2ncccc2C(=O)N(C)c2ccc(-c3c[nH]c(C(C)=O)c3)nc21		RT-Y181C	nucleotide incorporation / radiometric	<1 µM
NCCCNC(=O)c1ccc(NC(=O)CSC(=O)N2CCCc3cc(Cl)cc(Cl)c32)c(Cl)c1		K103N	scintillation proximity	0.002 µM
C[C@H](Cc1cnn2c(N)ncnc12)OCP(=O)(O)OP(=O)(O)OP(=O)(O)O			nucleotide incorporation / radiometric	0.05–0.25 µM
CCN1c2ncc(CCOc3ccc(NS(=O)(=O)C(F)(F)F)c4ccccc34)cc2C(=O)N(C)c2ccc(F)nc21		RT-Y188L	nucleotide incorporation / radiometric	>1 µM
Nc1nc(Nc2ccc(Cl)cc2)nn1S(=O)(=O)c1ccc2ccccc2c1	IIIB		luciferase / RT activity	9.3 µM

For reference, 5 entries again:

SMILES | strain | mutations | read by | value
CCN1c2ncc(CCOc3ccc(C4CC4C(=O)O)c4ccccc34)cc2C(=O)N(C)c2ccc(F)nc21 | WT |  | nucleotide incorporation / radiometric | <0.1 µM
CCN1c2ncc(CCOc3ccc(NS(=O)(=O)C(F)(F)F)c4ccccc34)cc2C(=O)N(C)c2ccc(F)nc21 |  | RT-Y188L | nucleotide incorporation / radiometric | >1 µM
CCN1c2ncc(CCOc3ccc(C(=O)Nc4cccnc4C)cc3C)cc2C(=O)N(C)c2cccnc21 | IIIB | RT-K103N Y181C | nucleotide incorporation / radiometric | <0.05 µM
CCCN1c2ncccc2C(=O)N(C)c2ccc(-c3cn[nH]c3)nc21 |  | RT-Y181C | nucleotide incorporation / radiometric | <1 µM
CCN1c2ncc(CCc3ccccc3)cc2C(=O)N(C)c2ccc(Cl)nc21 | IIIB |  | RT activity | 0.05 µM

ICn: concentration for n% inhibition. Rows are shuffled and stem from different studies. a–b is a range or a potency band.